Test results taken from publication PMC11856660 (2025).

What was measured:
[1] = target: HCoV-229E nsp15 protein, G248V mutant (recombinant, hexameric) (human coronavirus 229E (HCoV-229E)); assay: dynamic light scattering
[2] = target: HCoV-229E nsp15 protein, H250Y mutant (recombinant, hexameric) (human coronavirus 229E (HCoV-229E)); assay: dynamic light scattering

Substance | percent hexameric [1] [%] | stoichiometry N [1] | percent hexameric [2] [%] | stoichiometry N [2]
HCoV-229E nsp15 protein, G248V mutant (recombinant, hexameric) (enzyme) | > 98 | 6 |  | 
HCoV-229E nsp15 protein, H250Y mutant (recombinant, hexameric) (enzyme) |  |  | > 98 | 6
